Anti-infective test results gathered from many reports (values: NIAID ChemDB through PubChem).

Shared fields: growth or infection tests; organism: Mycobacterium avium

Rows are shuffled and stem from different studies. A number after MIC or MFC names an inhibition level or a share of isolates. An empty or dashed field is not shown. a–b is a range or a potency band.

smiles	measure	strain	conditions	read by	result
Cc1ccc(C(Cn2ccnc2)OCc2cccc3ccccc23)cc1	MIC	103317			1.46 µM
NC(=Nc1ccc2ccc3cccnc3c2n1)c1ccccc1	MIC	SN 304			8 µg/mL
S=C(Nc1ccc(C2CCCCC2)cc1)c1ccccc1	MIC	MY330/88			16 µM
O=C(CCC(=O)Nc1ccccc1)Nc1ccccc1	MIC				500 µM
Cc1ccc2c(=O)n(-c3cccc(F)c3)c(=O)oc2c1	MIC	CNCTC MY330/88			32 µM
CO[C@H]1[C@@H](O)[C@H](n2ccc(=O)[nH]c2=O)O[C@@H]1[C@@H](O[C@H]1OC(C(=O)N[C@H]2CCC[C@@H](C)NC2=O)=C[C@H](O)[C@@H]1O)C(N)=O	MIC	complex strain 101		broth dilution	8 µg/mL
CC(C)c1ccc(NC(=S)c2cccc([N+](=O)[O-])c2)cc1	MIC	MY330/88			62.5 µM
COc1ccc(/C=C/C2=NN(C(=N)N)C(c3ccc(OC)cc3)C2)cc1	MIC			resazurin	1.78 µM
N/C(=N\NC(CC(=O)c1ccc(Cl)c(Cl)c1)c1ccncc1)c1ccccn1	MIC	485			8 µg/mL
O=C(c1ccncc1)N(/N=C/c1ccc(Cl)cc1Cl)C(=O)c1cnccn1	MIC	ATCC49601			>16 µg/mL
CCC(CO)NC[C@H]1O[C@H](CO)[C@@H](O)[C@@H]1O	MIC	3 to 5 clinical isolates			>128 µg/mL
COc1ccccc1/C=N/N=C(\N)c1ccncc1	MIC	INH resistant			128 µg/mL
Cc1ccc2oc(/C=N/N=C(\N)c3cnccn3)nc2c1	MIC				>16 µg/mL
CC(C)Sc1ncnc2ccccc12	MIC	CNCTC MY80/72			125 µM
Cc1cccc(C(=O)CC(N/N=C(\N)c2ccccn2)c2ccncc2)c1	MIC	485			16 µg/mL
NC(=Nc1nc(-c2ccccn2)cc2ccccc12)c1ccc(Cl)c(Cl)c1	MIC	SN 304			0.5 µg/mL
O=C(CCC(=O)Nc1cccc(Cl)c1)Nc1cccc(Cl)c1	MIC				>1000 µM
Cc1c(CN2CCSCC2)cc(-c2ccc(F)cc2)n1-c1ccc(F)cc1	MIC	103317			16 µg/mL
N/C(=N\N=C\c1ccccc1)SCc1ccccc1	MIC	ATCC 25291	14 d	broth dilution	32 µM
CCCCc1ccc(NC(=S)c2cccc(OC)c2)cc1	MIC	MY330/88			32 µM
CN1CCN(c2ccccc2NCc2ccc(-c3ccccc3)cc2)CC1	MIC	103317			10.8 µM
N/C(=N\N=C\c1ccc(Cl)cc1)c1ccncc1	MIC	INH resistant			32 µg/mL
COc1cccc(C(=S)Nc2ccc(C(C)C)cc2)c1	MIC	MY330/88			62.5 µM
CCCCSc1nnnn1-c1ccc(C)c(C)c1	MIC	80/72			125 µM
O=C(c1ccncc1)N(NCc1cccc(Cl)c1)C(=O)c1cnccn1	MIC	ATCC49601			>16 µg/mL
CCC(CO)NC[C@H]1N[C@@H](CO)[C@@H](O)[C@@H]1O	MIC	3 to 5 clinical isolates			>128 µg/mL
CC1COc2c(N3CCN(C)CC3)c(F)cc3c(=O)c(C(=O)O)cn1c23	MIC50	18 strains			12.5 µg/mL
COc1cccc(C(=O)NCc2cccnc2)c1O	MIC	ATCC 25291	21 d		1000 µM
N/C(=N\NC(CC(=O)c1ccccc1)c1ccncc1)c1ccccn1	MIC	485			16 µg/mL
Ic1ccc(-n2nnnc2SSc2nnnn2-c2ccc(I)cc2)cc1	MIC	80/72			>1000 µM
Cc1ccc(/C=N/N=C(\N)c2ccncc2)c(C)c1	MIC	INH resistant			128 µg/mL
C[C@@H]1CN(c2c(F)c(N)c3c(=O)c(C(=O)O)cn(C4CC4)c3c2F)C[C@H](C)N1	MIC	101			4 µg/mL
CCCCCCCCCCCN(CCCCCCCCCCC)C(=O)NC(CCC(=O)O)(CCC(=O)O)CCC(=O)O	MIC	VA14			18 µg/mL
CN1C(=S)C(=O)c2ccccc21	MIC	CNCTC MY66/72			16 µM
O=C(Nc1ccc(N2CCSCC2)cc1)c1ccc(Cl)cc1	MIC	103317			92.3 µM
CCCCCCCCCCCCCCCCCCCCCCC(=O)NC(C)(CCC(=O)O)CCC(=O)O	MIC	VA14			36 µg/mL
Cc1ccccc1/C=C/C1=NN(C(=N)N)C(c2ccccc2C)C1	MIC			resazurin	1.96 µM
C[C@@H]1CN(c2c(F)c(N)c3c(=O)c(C(=O)O)cn(C4CC4)c3c2F)C[C@H](C)N1	MIC	11 strains			0.63–10 µg/mL
CC(C)c1ccc(NC(=S)c2ccccc2)cc1	MIC	MY330/88			62.5 µM
Clc1ccc(/C(Cn2ccnc2)=N\OCc2ccccc2)cc1	MIC	103317			1.53 µM
Fc1ccc(-n2nnnc2SSc2nnnn2-c2ccc(F)cc2)cc1	MIC	80/72			>1000 µM
N/C(=N\N=C\c1ccccn1)c1cnccn1	MIC				>16 µg/mL
CCSc1nnnn1-c1cccc(C)c1	MIC	80/72			1000 µM
COc1ccc(-n2c(=O)oc3ccc(C)cc3c2=O)cc1	MIC	CNCTC MY330/88			62.5 µM
CCC(CO)NCC[C@H]1O[C@H](O[C@H]2O[C@H](CCNC(CC)CO)[C@@H](O)[C@H](O)[C@H]2O)[C@H](O)[C@@H](O)[C@@H]1O	MIC	3 to 5 clinical isolates			>128 µg/mL
N/C(=N\N=C\c1cc(Br)ccc1O)SCc1ccc(F)cc1	MIC	ATCC 25291	14 d	broth dilution	62.5 µM
COc1ccccc1/C=C/C1=NN(C(=N)N)C(c2ccccc2OC)C1	MIC			resazurin	1.78 µM
N/C(=N\N=C\c1ccc(Cl)c([N+](=O)[O-])c1)c1ccncc1	MIC	INH resistant			>256 µg/mL
O=C(NCc1ccccn1)c1cc(Br)ccc1O	MIC	ATCC 25291	21 d		250 µM
CCC(CO)NC[C@H]1OC(OC)[C@@H](O)[C@@H]1O	MIC	3 to 5 clinical isolates			>128 µg/mL
Cc1ccc(-n2nnnc2SC(C)C)cc1	MIC	80/72			1000 µM
CC(C)c1ccc(NC(=S)c2cccc(Cl)c2)cc1	MIC	MY330/88			32 µM
COc1cc(/C=N/N=C(\N)c2ccncc2)cc(OC)c1	MIC	INH resistant			256 µg/mL
O=C1C(=S)N(Cc2ccccc2)c2ccccc21	MIC	CNCTC MY80/72			250 µM
COc1ccc(OC)c(/C=N/N=C(\N)c2ccncc2)c1	MIC	INH resistant			256 µg/mL
N/C(=N\N=C\c1cc2ccccc2o1)c1ccccn1	MIC				>16 µg/mL
CCCCc1ccc(NC(=S)c2cccc(Br)c2)cc1	MIC	MY330/88			32 µM
CC(C)c1ccc(NC(=O)CCC(=O)Nc2ccc(C(C)C)cc2)cc1	MIC				63 µM
O=C(NCc1ccccc1)c1ccc(Cl)cc1O	MIC	ATCC 25291	21 d		62 µM
Cc1ccc(-n2c(=O)oc3ccc(Cl)cc3c2=O)cc1	MIC	MY330/88			16 µM
Brc1ccc(-n2nnnc2SSc2nnnn2-c2ccc(Br)cc2)cc1	MIC	80/72			1000 µM
N/C(=N\N=C\c1nc2ccc([N+](=O)[O-])cc2o1)c1cnccn1	MIC				>16 µg/mL
O=C(NCc1ccccn1)c1cc(Cl)ccc1O	MIC	ATCC 25291	14 d		125 µM
N/C(=N\N=C\c1cc2ccccc2o1)c1cnccn1	MIC				>16 µg/mL
CCCCCCCCCCCCc1ccc(NC(=O)C2=CCN(C)[C@@H]([C@H](O[C@@H]3O[C@H](CN)[C@@H](O)[C@H]3O)[C@H]3O[C@@H](n4ccc(=O)[nH]c4=O)[C@H](O)[C@@H]3O)C(=O)N2C)cc1	MIC	ATCC 25291			6.25 µg/mL
N/C(=N\N=C\c1ccccn1)c1ccccn1	MIC				>16 µg/mL
CCn1c(S)c(N=NC(N)=O)c2ccccc21	MIC	CNCTC MY80/72			500 µM
O=c1oc2ccccc2c(=O)n1-c1ccc([N+](=O)[O-])cc1	MIC	CNCTC MY330/88			16 µM
COc1ccc(C(N)=Nc2nc(-c3ccccn3)cc3ccccc23)cc1	MIC	SN 304			0.25 µg/mL
CCC(C)c1ccc(NC(=O)CCC(=O)Nc2ccc(C(C)CC)cc2)cc1	MIC				63 µM
N/C(=N\N=C\c1ccccc1)SCc1cccc(Cl)c1	MIC	ATCC 25291	14 d	broth dilution	16 µM
NC(=S)N=Nc1c(S)n(-c2ccccc2)c2ccccc12	MIC	CNCTC D5/93			63 µM
COc1ccc(-n2c(=O)oc3ccc(F)cc3c2=O)cc1	MIC	CNCTC MY330/88			16 µM
O=C(c1ccncc1)N(/N=C/c1ccco1)C(=O)c1cnccn1	MIC	ATCC49601			>16 µg/mL
c1ccc(-c2ccc(CNC(Cn3ccnc3)c3ccccc3)cc2)cc1	MIC	103317			11.3 µM
CCCCCCCC(CCCCCCC)NC(=O)NC(CCC(=O)O)(CCC(=O)O)CCC(=O)O	MIC	VA14			54 µg/mL
N/C(=N\N=C\c1cc2ccccc2s1)c1ccccn1	MIC				>16 µg/mL
O/N=C(/Cn1ccnc1)c1ccc(Cl)cc1	MIC	103317			33.9 µM
O=C(c1ccncc1)N(/N=C/c1cccc(Cl)c1)C(=O)c1cnccn1	MIC	ATCC49601			>16 µg/mL
S=c1oc2ccc(Cl)cc2c(=S)n1-c1cccc(Cl)c1	MIC	MY330/88			31 µM
C(=C\c1ccccc1)/CNC(Cn1ccnc1)c1ccccc1	MIC	103317			52.7 µM
Cc1cccc(C(N)=Nc2nc(-c3ccccn3)cc3ccccc23)c1	MIC	SN 304			0.5 µg/mL
S=c1oc2ccc(Cl)cc2c(=S)n1-c1ccc(Br)cc1	MIC	MY330/88			16 µM
Clc1ccc(/C(Cn2ccnc2)=N/OCc2ccccc2)cc1	MIC	103317			1.53 µM
Cc1ccc(-n2c(=O)oc3ccc(Cl)cc3c2=S)cc1	MIC	MY330/88			31 µM
CCCCCCCCCN(CCCCCCCCC)C(=O)NC(CCC(=O)O)(CCC(=O)O)CCC(=O)O	MIC	VA14			13.5 µg/mL

The first 6 rows once more:

smiles	measure	strain	conditions	read by	result
Cc1ccc(C(Cn2ccnc2)OCc2cccc3ccccc23)cc1	MIC	103317			1.46 µM
NC(=Nc1ccc2ccc3cccnc3c2n1)c1ccccc1	MIC	SN 304			8 µg/mL
S=C(Nc1ccc(C2CCCCC2)cc1)c1ccccc1	MIC	MY330/88			16 µM
O=C(CCC(=O)Nc1ccccc1)Nc1ccccc1	MIC				500 µM
Cc1ccc2c(=O)n(-c3cccc(F)c3)c(=O)oc2c1	MIC	CNCTC MY330/88			32 µM
CO[C@H]1[C@@H](O)[C@H](n2ccc(=O)[nH]c2=O)O[C@@H]1[C@@H](O[C@H]1OC(C(=O)N[C@H]2CCC[C@@H](C)NC2=O)=C[C@H](O)[C@@H]1O)C(N)=O	MIC	complex strain 101		broth dilution	8 µg/mL